# Tests used:
# muscle AChE = assay: Muscle AChE-R accumulation and AChE activity in sequential fractions, 10 days post-treatment; conditions: lethal dose of paraoxon
# NMJ = NMJ density and area in diaphragm (AChE activity staining); conditions: 0.8×LD50 paraoxon vs PBS control, 10 days
# plasma AChE = assay: Delayed effects of OP poisoning: survival and plasma AChE 10 days post-treatment; conditions: unprotected, sub-lethal (0.8 LD50) paraoxon challenge
smiles,measurement,setting,value
CCOP(=O)(OCC)Oc1ccc([N+](=O)[O-])cc1,decrease in membrane-bound detergent-soluble forms of AChE,muscle AChE,50%
same,NMJ density and fraction of large NMJs,NMJ,increased both the density and the fraction of large NMJs
same,survival rate,plasma AChE,100%

# — patent publication US20110064716A1, “MATERIALS AND METHODS FOR TREATING OR PREVENTING ORGANOPHOSPHATE EXPOSURE ASSOCIATED DAMAGE” (published 2011)
